Data: PubChem BioAssay AID1347131 (National Center for Advancing Translational Sciences (NCATS), 2019)
The list shows a part of the results. Inconclusive results are not listed. Activity calls are given as the source filed them. Calls come from the whole dose curve; tested in HEK293 reporter line.

Assay: qHTS Assay for Foot and Mouth Disease Virus Antivirals: Primary Screen against the MLPCN compound library; note: nearly all actives have a fitted effect of over 55% in size
Settings: FMDV antiviral cell-based qHTS; at 57.9 µM (top of the series)
With `COc1cc(C(=O)NCC2(N3CCOCC3)CCCCC2)cc(Cl)c1OC(C)C` the activity, negative = inhibition was inactive: 3.92%. In the case of `O=[As](O)(O)c1cccnc1`, the activity, negative = inhibition is reported as inactive: -5.21%. For `CCOP(=O)(Nc1cccc2ccccc12)OCC`, the activity, negative = inhibition was inactive: -9.6%. In the case of `COc1cc(C2NCCC3(OCCO3)C2(C)C)cc(OC)c1OC` (stereo not drawn), the activity, negative = inhibition is reported as inactive: -2.67%. For `Nc1cccc2c([As](=O)(O)O)cccc12`, the activity, negative = inhibition was inactive: -8.68%. For `Cc1ccc(NCCc2c([N+](=O)[O-])cc([N+](=O)[O-])cc2[N+](=O)[O-])cc1`, the activity, negative = inhibition was inactive: -3.96%. For `CCCOP(=S)(Nc1nc(N)cc(=O)[nH]1)OCCC`, the activity, negative = inhibition was inactive: 7.06%. For `Nc1ccccc1[As](=O)(O)c1ccccc1`, the activity, negative = inhibition was inactive: 3.75%. In the case of `O=C(O)COc1ccc([As](=O)(O)O)cc1[N+](=O)[O-]`, the activity, negative = inhibition is reported as inactive: -6.22%. With `O=P(Nc1nccs1)(c1ccccc1)c1nc2ccccc2s1` (stereo not drawn) the activity, negative = inhibition was inactive: -0.486%. For `O=P(Nc1nccs1)(Oc1ccccc1)Oc1ccccc1`, the activity, negative = inhibition was inactive: 0%. For `CN(C(=O)Cc1ccccc1)[C@@H]1CC[C@]2(CCCO2)C[C@H]1N1CCCC1`, the activity, negative = inhibition was inactive: -12.9%. With `N#CCCN(C(=O)COC(=O)C(O)(c1ccccc1)c1ccccc1)c1ccc(F)cc1` the activity, negative = inhibition was inactive: -22.7%. In the case of `CN(C(=O)Cc1ccc(Cl)c(Cl)c1)[C@H]1CC[C@@]2(CCCO2)C[C@@H]1N1CCCC1`, the activity, negative = inhibition is reported as inactive: -13.8%. For `O=[N+]([O-])c1ccc2c(c1)nnn2O`, the activity, negative = inhibition was inactive: 2.56%. For `NC(=O)Nc1ccc([As](=O)(O)O)cc1`, the activity, negative = inhibition was inactive: -21.3%. With `[N-]=[N+]=NC1CCCCC1NC(=O)c1cc([N+](=O)[O-])cc([N+](=O)[O-])c1` (stereo not drawn) the activity, negative = inhibition was inactive: -23.4%. In the case of `Cc1ccc(OP(=O)(Nc2ccc([N+](=O)[O-])cn2)Oc2ccc(C)cc2)cc1`, the activity, negative = inhibition is reported as inactive: 61.1%. In the case of `Cc1ccc2nc3c(c(C)c2c1)CC(C(Cl)Cl)S3` (stereo not drawn), the activity, negative = inhibition is reported as inactive: 57.4%. In the case of `COc1cc(C(=O)NCC2(N3CCOCC3)CCCCC2)ccc1OCC(C)C`, the activity, negative = inhibition is reported as inactive: -7.01%. For `O=[N+]([O-])c1ccc(-c2cc([N+](=O)[O-])c(O)c([N+](=O)[O-])c2)cc1`, the activity, negative = inhibition was inactive: -22%. With `O=[As](O)(c1ccc(O)cc1)c1ccccc1O` the activity, negative = inhibition was inactive: -2.77%. For `C[As](=O)(O)c1cccc(C(=O)O)c1`, the activity, negative = inhibition was inactive: -11.5%. With `O=[N+]([O-])c1cc([N+](=O)[O-])c(-c2ccn[nH]2)s1` the activity, negative = inhibition was inactive: -29.4%. For `O=C(OC1CN2CCC1CC2)c1cccc2[nH]cnc12` (stereo not drawn), the activity, negative = inhibition was inactive: -7.38%. With `CCN(CC)C(=S)SC(NC=O)C(Cl)(Cl)Cl` (stereo not drawn) the activity, negative = inhibition was inactive: -12.1%. With `CC(C)NC(=O)NP(=O)(Oc1ccccc1)Oc1ccccc1` the activity, negative = inhibition was inactive: 73.5%. In the case of `ClCCSc1nnc(-c2cccnc2)o1`, the activity, negative = inhibition is reported as inactive: 0%. In the case of `CC(C)c1ccc(OP(=O)(Nc2ccccn2)Oc2ccccc2F)cc1` (stereo not drawn), the activity, negative = inhibition is reported as inactive: 42.9%. For `COC(=O)C1(C)COP(=O)(N2CCCCCC2)OC1` (stereo not drawn), the activity, negative = inhibition was inactive: -13.3%. With `O=P1(N(CCCl)CCCl)Nc2ccccc2N1` the activity, negative = inhibition was inactive: 7.98%. For `O=P1(N(CCCl)CCCl)OCCCN1CCCl` (stereo not drawn), the activity, negative = inhibition was inactive: -10.8%. With `COc1cc(I)ccc1[As](=O)(O)O` the activity, negative = inhibition was inactive: -4.16%. With `COc1ccc2nc(NP(=O)(c3ccccc3)c3ccccc3)sc2c1` the activity, negative = inhibition was inactive: 39.4%. In the case of `Cc1c2c(nc3ccccc13)SC(C(Cl)Cl)C2` (stereo not drawn), the activity, negative = inhibition is reported as inactive: 18.9%. With `Cc1cc(=O)[nH]c(N[N+](=O)[O-])n1` the activity, negative = inhibition was inactive: -13.2%. With `O=C(OC1CN2CCC1CC2)C12CC3CC(CC(C3)C1)C2` (stereo not drawn) the activity, negative = inhibition was inactive: -5.04%. For `O=[N+]([O-])c1cc(Oc2ccc([N+](=O)[O-])cc2C(F)(F)F)cc([N+](=O)[O-])c1`, the activity, negative = inhibition was inactive: -1.69%. For `COc1ccc(N/C(=N/P(=O)(N2CCOCC2)N2CCOCC2)N2CCOCC2)cc1`, the activity, negative = inhibition was inactive: 1.68%. In the case of `O=C(O)C(=O)c1ccc(N(CCCl)CCCl)cc1`, the activity, negative = inhibition is reported as inactive: -4.18%. With `O=C(COc1ccccc1)OC1CN2CCC1CC2` (stereo not drawn) the activity, negative = inhibition was inactive: -15.6%. In the case of `COC(=O)C1(C)COP(=O)(N2CCCC2)OC1` (stereo not drawn), the activity, negative = inhibition is reported as inactive: -10.6%. In the case of `O=C(OC1CN2CCC1CC2)c1cccc([N+](=O)[O-])c1` (stereo not drawn), the activity, negative = inhibition is reported as inactive: -4.16%. In the case of `CCOC(=O)c1ccc(NC(=O)C(C)(CCl)SC)cc1` (stereo not drawn), the activity, negative = inhibition is reported as inactive: 61.2%. For `COP(=O)(OC)N1CC1c1ccccc1` (stereo not drawn), the activity, negative = inhibition was inactive: -18.5%. In the case of `Cc1cc(SC(NC(=O)c2ccccc2)C(Cl)(Cl)Cl)nc(C(C)C)n1` (stereo not drawn), the activity, negative = inhibition is reported as inactive: -24.7%. For `CCCCOc1ccc(C(=O)NCC2(N3CCCCC3)CCCCC2)cc1OC`, the activity, negative = inhibition was inactive: -17%. In the case of `CCOC(=O)Nc1ccc([As](=O)(O)O)c(O)c1`, the activity, negative = inhibition is reported as inactive: -14.8%. For `O=C(O)C(O)c1ccc(N(CCCl)CCCl)cc1` (stereo not drawn), the activity, negative = inhibition was inactive: -0.245%. With `CC1CCNP(=O)(N(CCCl)CCCl)O1` (stereo not drawn) the activity, negative = inhibition was inactive: -12.8%. For `O=P(Nc1ccccn1)(c1cccc2ccccc12)c1cccc2ccccc12`, the activity, negative = inhibition was inactive: -10.7%. With `Cc1cc(SC(NC=O)C(Cl)(Cl)Cl)ncn1` (stereo not drawn) the activity, negative = inhibition was inactive: -14.2%. With `CCOC(=O)Nc1cccc([As](=O)(O)O)c1` the activity, negative = inhibition was inactive: 0.501%.
